Compound potency records, mixed from different reports. Data source: NIAID ChemDB in PubChem.

Common to all: tests on isolated targets; agent: HIV-2; target: Reverse transcriptase; endpoint: IC50

Rows are shuffled and stem from different studies. ICn: concentration for n% inhibition. Blank or dashed fields: not listed here.

compound | method | changes | strain or isolate | value
CCOCn1c(Sc2ccccc2)c(CC)c(=O)[nH]c1=O | - | - | - | >500 µM
CCc1c(C)[nH]c(=O)c(N)c1Sc1cc(C)cc(C)c1 | nucleotide incorporation | - | - | >10 µM
C[C@H]1C2(O)CCC3C1(CCC1[C@@]3(C)CC[C@@]3(C)C4C[C@](C)(C(=O)O)CC[C@]4(C)CC[C@]13C)CO2 | - | - | - | 100 µg/mL
C=C(C)OC(=O)N1c2cc(Cl)ccc2NC(=S)C1(C)C | radiometric | RT-D194 | ROD | >500 µM
O=C(Nc1ccc(Br)cc1C(=O)O)c1cncc(C(=O)Nc2ccc(Br)cc2C(=O)O)c1 | - | - | - | >100 µg/mL
Cc1ccc(C)c(CSc2c(Cl)ccc[n+]2[O-])c1 | nucleotide incorporation / radiometric | - | - | >500 µg/mL
Cc1ccc(C)c(CS(=O)c2ccc(Cl)c[n+]2[O-])c1 | nucleotide incorporation / radiometric | - | - | >500 µg/mL
CC(C)=CCN1Cc2cccc3[nH]c(=S)n(c23)C[C@@H]1C | nucleotide incorporation | - | ROD | >300 µM
Cc1cccc(CS(=O)(=O)c2cccc[n+]2[O-])c1 | nucleotide incorporation / radiometric | - | - | >500 µg/mL
CC(C)=CCOc1cc(NC(=S)c2ccoc2C)ccc1Cl | - | - | - | >100 µM
O=[N+]([O-])c1ccccc1S(=O)(=O)c1ccccc1 | - | - | - | 9.5 µM
Cc1ccc(C)c(CS(=O)(=O)c2cccc[n+]2[O-])c1 | nucleotide incorporation / radiometric | - | - | >500 µg/mL
Cc1cc(C)c(CS(=O)c2cccc[n+]2[O-])c(C)c1 | nucleotide incorporation / radiometric | - | - | >500 µg/mL
CC(C)=CCOc1cc(NC(=S)c2ccsc2C)ccc1Cl | - | - | - | >100 µM
COc1ccc(OC)c(C/C=C(\C)CC/C=C(\C)CC/C=C(\C)CC/C=C(\C)CC/C=C(\C)CCC=C(C)C)c1 | nucleotide incorporation | - | - | 12.8 µM
O=C(CCCCC(=O)Nc1ccccc1C(=O)O)Nc1ccccc1 | - | - | - | >100 µg/mL
C=C1CCC[C@H]2[C@](C)(CC3=C(OC)C(=O)C=C(OC)C3=O)[C@@H](C)CC[C@]12C | nucleotide incorporation | - | - | 45 µM
O=C(OC1[C@H](OC(=O)c2cc(O)c(O)c(O)c2)CC(OC(=O)c2cc(O)c(O)c(O)c2)(C(=O)O)C[C@H]1OC(=O)c1cc(O)c(O)c(O)c1)c1cc(O)c(O)c(O)c1 | - | - | ROD | 0.8 µM
O=C(CCCCC(=O)Nc1ccc(Br)cc1)Nc1ccccc1 | - | - | - | >100 µg/mL

Again, the opening 2 rows:

compound,method,changes,strain or isolate,value
CCOCn1c(Sc2ccccc2)c(CC)c(=O)[nH]c1=O,-,-,-,>500 µM
CCc1c(C)[nH]c(=O)c(N)c1Sc1cc(C)cc(C)c1,nucleotide incorporation,-,-,>10 µM